Compound potency records, mixed from different reports. Data source: NIAID ChemDB in PubChem.

Common to all: growth or infection tests; organism: Adenovirus

ECn is the concentration giving n% inhibition of infection, replication or growth. Neighbouring rows are from separate reports. Blank or dashed fields: not listed here.

structure,strain,cell line,measure,method,result
Nc1ncnc2c1ncn2C[C@@H](CO)OCP(=O)(O)O,adenoid 6 (TYPE 2),,EC50,cytopathic effect,10 µg/mL
COC(=O)c1c(SC)nsc1-c1ccccc1,TYPE 2,HEP-2,EC50,plaque count,>100 µg/mL
Nc1ccn([C@H]2CC[C@@H](CO)O2)c(=O)n1,TYPE 2,HEL,EC50,,2 µM
O=C(O)/C=C/c1ccc(O)cc1,TYPE 3,BCC-1/KMC,EC50,cytopathic effect,>200 µg/mL
Nc1nc2c(ncn2C[C@]2(CO)C[C@H]2CO)c(=O)[nH]1,TYPE 2,HEL,EC50,cytopathic effect,297 µM
Nc1ccn([C@H]2CC[C@@H](CO)O2)c(=O)n1,TYPE 3,BCC-1/KMC,EC50,cytopathic effect,7.5 µg/mL
Cc1cn(CC(CO)OCP(=O)(O)O)c(=O)[nH]c1=O,3 TYPES,HEL,EC50,cytopathic effect,>125 µg/mL
Cc1cn(COC2CP(=O)(Oc3ccccc3)OC2C)c(=O)[nH]c1=O,TYPE 2,HEP-2,EC50,cytopathic effect,>320 µg/mL
O=c1ccn(CC(CO)OCP(=O)(O)O)c(=O)[nH]1,3 TYPES,HEL,EC50,cytopathic effect,>125 µg/mL
CC1(C)CC[C@]2(C(=O)O)CC[C@]3(C)C(=CC[C@@H]4[C@@]5(C)CC[C@H](O)C(C)(C)[C@@H]5CC[C@]43C)[C@@H]2C1,TYPE 11,BCC-1/KMC,EC50,cytopathic effect,>40 µg/mL
CCCSc1nsc(-c2ccccc2)c1C(N)=O,TYPE 2,HEP-2,EC50,plaque count,>300 µg/mL
O=c1cc(-c2ccc(O)c(O)c2)oc2cc(O)cc(O)c12,TYPE 11,BCC-1/KMC,EC50,cytopathic effect,>25 µg/mL
Nc1ncnc2c1ncn2CCOCP(=O)(O)O,TYPE 4,,MIC,,>100 µg/mL
Nc1nc2c(ncn2CCC(CO)CO)c(=O)[nH]1,TYPE 2,HEL,EC50,,>1000 µM
C[C@H]1[C@H](C)CC[C@]2(C(=O)O)CC[C@]3(C)C(=CC[C@@H]4[C@@]5(C)CC[C@H](O)C(C)(C)[C@@H]5CC[C@]43C)[C@H]12,TYPE 11,BCC-1/KMC,EC50,cytopathic effect,>20 µg/mL
N#Cc1c(N2CCCC2)nsc1-c1ccccc1,TYPE 2,HEP-2,EC50,plaque count,>7 µg/mL
O=c1[nH]c(=O)n([C@H]2C[C@H](O)[C@@H](CO)O2)cc1/C=C/Br,TYPE 1,VERO,EC50,plaque count,>100 µM
Nc1ncc2c(ncn2COC(CO)CO)n1,TYPE 2,HEL,EC50,PCR,1.2 µM
N#Cc1c(SCCCCBr)nsc1-c1ccccc1,TYPE 2,HEP-2,EC50,plaque count,>25 µg/mL
Nc1ncnc2c1ncn2C[C@H]1COP(=O)(O)CO1,3 TYPES,HEL,EC50,cytopathic effect,0.37 µg/mL
CC(O)C(CP(=O)(O)O)OCn1ccc(=O)[nH]c1=O,TYPE 2,HEP-2,EC50,cytopathic effect,>320 µg/mL
COc1cc(/C=C/C(=O)O)ccc1O,TYPE 3,BCC-1/KMC,EC50,cytopathic effect,>100 µg/mL
CCCSc1nsc(-c2ccccc2)c1C#N,TYPE 2,HEP-2,EC50,plaque count,>200 µg/mL
Nc1ccnc2c1ncn2[C@H]1C=C[C@@H](OCP(=O)(O)O)O1,13306 (TYPE 8),,EC50,cytopathic effect,10 µg/mL
Nc1nc(N)c2ncn(CCOCP(=O)(O)O)c2n1,3 TYPES,HEL,EC50,cytopathic effect,>125 µg/mL
Nc1nc(N)c2ncn(CCOCP(=O)(O)O)c2n1,TYPE 4,,MIC,,>100 µg/mL
CC(O)C(CP(=O)(O)O)OCn1ccc(N)nc1=O,TYPE 2,HEP-2,EC50,cytopathic effect,>320 µg/mL
Nc1ncnc2c1ncn2C[C@H](CO)OCP(=O)(O)O,Chicago (type 1),,EC50,cytopathic effect,4 µg/mL
N#Cc1c(SCCO)nsc1-c1ccccc1,TYPE 2,HEP-2,EC50,plaque count,>5 µg/mL